The values below come from patent US10273305B2, “Bispecific CXCR4-CD4 polypeptides with potent anti-HIV activity” (Ablynx N.V., priority 2015, dated 2019).

The test system of the assay is AMD3100 resistant virus. The format is cell-based, HIV-1. The following applies: MT-4 cells.

Turning to `c1cc(CN2CCCNCCNCCCNCC2)ccc1CN1CCCNCCNCCCNCC1` [AMD3100, plerixafor], the “loss in potency on AMD3100 resistant virus” value is on record as about 100 fold.
